One series deals with HIV strains. Description: Neutralization assays, comparison over HIV strains. Format: cell-based. The conditions noted are these: depending on HIV strains. As for the experimental part:
To analyze the inhibitory activity of the new compounds, both CD4M47 and CD4M48 were compared to their parent molecules (respectively CD4M33 and [Phe^23]M33) and sCD4 in neutralization cell line assay. The susceptibility of various envelope clones to be inhibited by CD4-mimic peptides was analyzed using a broadly sensitive HIV-entry assay able to give quantified infection within a single cycle of replication (Salzwedel et al., J. Virol., 2000, 74, 326-333). Using JC53BL-13 indicator cell line, HIV neutralization escapes were evaluated with various isolate envelopes, not only of HIV-1 type but also of HIV-2 and SIV types (Wei et al., Nature, 2003, 422, 307-312).
Sensitivity to neutralization by mini-proteins varied substantially depending on HIV strains, but remained lower than for CD4. Stabilizing of the type II′ β-turn in CD4M48 leads to a significant increase (up to 10 fold) of its neutralization potency of HIV infection, compared to its parent molecule [Phe^23]M33. The addition of a biphenyl moiety at position 23 in CD4M47 peptide led to more subtle differences, depending mainly on the isolates. For highly sensitive isolates from group M such as NL4.3, YU2, MN-8, MN-25, the biphenyl moiety always provided an improvement in efficiency compared to phenyl group. […]

A further series can be described thus: WST-1 cytotoxicity assay. The conditions noted are these: human, ME-180 endocervical cells, ME-180 cells, read-out: cellular toxicity, no toxicity up to concentration. Format: cell-based. As for the experimental part: Cytotoxicity of the compounds was evaluated using an enhanced colorimetric MTT-assay, WST-1, according to the manufacturer's instructions (ROCHE).Target cells were either co-cultures of monocyte-derived dendritic cells and allogeneic CD4^+ T cells or cultures of ME-180 endocervical cells. Briefly, MO-DC/CD4+ T cell co-cultures or ME-180 cells were incubated for respectively 5 days or 24 hours, in the presence of compound. WST-1 reagent was added on the last day of the (co-)culture. Cellular cytotoxicity was quantified 6 h later by analysis in ELISA.
Since a microbicide will be applied into the vaginal lumen, also the cytotoxicity towards genital epithelial cells is of importance. The ME-180 cell line as was used as a model for the epithelial cells which line the cervix in vivo.
Background: Tetrazolium assays rely on reduction of a dye to a coloured formazan, in cell work by metabolically active cells.

Series [1] deals with T1, gp120SF162 binding to CCR5+-CHO cells (Human immunodeficiency virus type 1 group M subtype B, UniProt P19550).
T1 construct: R5-tropic SF162 and Dual-tropic SF2 recombinant gp120s were produced in mammalian cells (CHO); made in house; host or cells: gp120: CHO; CCR5: transfected CHO-K1 cells
The series can be described thus: FACS analysis of gp120 binding to CCR5+-CHO cells in presence of CD4 mimics. Format: cell-based, HIV-1. The conditions noted are these: gp120SF162 pre-incubated with mini-protein. The text has this:
FIG. 7 illustrates the FACS analysis of the binding of recombinant envelope gp120 to CCR5^+-CHO cells in absence or in presence of various CD4-mimics, in comparison with soluble CD4.
FIG. 13 illustrates the FACS analysis of the binding of recombinant envelope gp120 to CCR5^+-CHO cells in absence or in presence of various CD4-mimics in comparison with soluble CD4.
FIG. 19 illustrates the FACS analysis of the binding of gp120SF162 to CCR5^+ CHO cells in absence or in presence of CD4M48 monomer or hetero-bivalent CD4M48−heparin. The ability of gp120 in complex with CD4M48 alone, CD4M48 covalently bound to heparin (noted M48−heparin), CD4M48 in presence of free LMW heparin (1:1) (noted M48+heparin) to bind to cellular co-receptor CCR5 was investigated.
Adherent CHO-K1 cells expressing CCR5 (Samson et al., Biochemistry, 1996, 35, 3362-3367; Blanpain et al., Blood, 2000, 96, 1638-1645) were used to analyze gp120SF162 conformational change in complex with different mini-proteins, by FACS (BECKTON DICKINSON). Briefly, 0.03 μg of gp120SF162 were pre-incubated overnight at 4° C. in absence or in presence of 10 nM CD4 or 10 nM mini-proteins and further added to 2×10^5 cells in HAM F12 supplemented with 10% SVF, 1% penicillin/streptomycin. After 1 h incubation at room temperature, cells were washed 3 times with phosphate buffer saline (PBS) containing 5% BSA. Bound gp120 was subsequently stained with D7324 antibody (AALTO BIO REAGENTS) washed and labeled with goat anti-sheep secondary antibody conjugated to phycoerythrin (PE) (R&D SYSTEMS). After final wash, cells were analyzed for envelope binding by FACS.
(A flow cytometer gives signals particle by particle.)

A further series concerns gp120. As for the experimental part:
Fluorescence anisotropy was determined after 40 min equilibration time at room temperature, using 485 nm excitation and 530 nm emission filters and an additional 505 nm dichroic filter. All experiments were performed in duplicate.
Fluorescence anisotropy measurements were based on the assessment of the rotational motions of species. Whereas the CD4-mimic tumbles very fast in solution randomizing excited molecules, once it binds to gp120 envelopes, the excited mini-protein stays aligned during the process of emission and as a result, emitted light is polarized.

The text below walks through data of US8354498B2, “CD4 mimic peptides and their uses” (Commissariat a l'Energie Atomique, priority 2006, dated 2013).

For the molecule `CC(C)C[C@@H]1NC(=O)CNC(=O)[C@H](CC(C)C)NC(=O)[C@H](CO)NC(=O)[C@H](CCCCN)NC(=O)[C@@H]2CSSC[C@@H](C(=O)N[C@H](C(N)=O)C(C)C)NC(=O)[C@H](C)NC(=O)[C@@H]3CSSC[C@H](NC(=O)[C@H](Cc4ccccc4)NC(=O)[C@H](Cc4c[nH]cn4)NC(=O)[C@H](CC(C)C)NC(=O)[C@H](CC(N)=O)NC(=O)CCSSC[C@H](NC(=O)[C@H](CCCNC(=N)N)NC(=O)CNC(=O)[C@H](CC(C)C)NC1=O)C(=O)N[C@@H](C)C(=O)N1CCC[C@@H]1C(=O)N[C@@H]([C@@H](C)O)C(=O)N[C@@H](Cc1ccccc1)C(=O)N3)C(=O)N[C@@H](CCC(N)=O)C(=O)N[C@@H](CC(C)C)C(=O)N[C@@H](CCCNC(=N)N)C(=O)N2` [CD4M48], in the series with HIV strains, the “Increase of neutralization potency of HIV infection compared to parent molecule [Phe^23]M33” value was “up to 10 fold”. The CC50 at 24 h in the series “WST-1 cytotoxicity assay” was greater than 10 µg/mL. Further, the “Binding of gp120 to CCR5+-CHO cells induced by the mimic (conformational change of gp120)” value in series [1] was “same recognizing of CCR5^+-CHO cells as CD4”. Also, the “Inhibition of CD4M33-F1 binding to gp120 (competitive polarization)” value in the series on gp120 was “increased efficiency compared to CD4M33 and sCD4”.
